# Experimental data taken from patent US20240059738A1, “SWITCHING PEPTIDE AND MULTIPLEX IMMUNOASSAY METHOD USING SAME” (OPTOLANE TECHNOLOGIES INC., priority 2021, published 2024).
# System: hepatitis B surface antigen (HBsAg)
sequence,measurement,setting,value
"TYLEWYPQKPGQSPKLLIYK [L1, TYLEW YPQKP GQSPK LLIYK]",LOD,fluorescence at the bottom of the microplate,587 ng/mL
same,"dynamic range, lower limit",fluorescence in the solution,136 ng/mL
same,"dynamic range, upper limit",fluorescence in the solution,33 µg/mL
same,LOD,"fluorescence in the solution, HBsAg 0.3 to 10^5 ng/ml",56 ng/mL

# Where two headings read alike, the source gives them in different places.
